For 1 substance, Kd results are on record in paper PMC9042943.

Broadly, the Kd is the free concentration of one partner at which half of the binding sites on the other are occupied at equilibrium, for simple one-to-one binding.

The assay addresses Recombinant Omicron (BA.1) variant SARS-CoV-2-S protein RBD monomer, spike residues 316-534 (SARS-CoV-2). Kind of assay: SPR. In general terms: SPR reads the build-up and loss of mass on a sensor chip optically.

Turning to “Recombinant hACE2 protein, residues 1-740 (from UniProt Q9BYF1-1 18-740) (receptor)”, the Kd stood at 6.59 nM.
